A mixed list of measured activities; the numbers were collected in NIAID ChemDB.

All rows: growth or infection tests; agent: HIV-1; cell line: MT-4; endpoint: EC50

Two numbers with a dash give a range or band.

| SMILES | strain | mutations | method | setting | result |
|---|---|---|---|---|---|
| CN1CCn2c(nc(C(=O)NCc3ccc(F)cc3)c(O)c2=O)C(NCC2CCCCC2)C1 | - | - | p24 | - | <50 µM |
| COc1cc(/C=N/n2sc3ccc(C)cc3c2=O)ccc1O | - | EFV-resistant (K103 V179D P225H) | MTT | - | >16 µM |
| O=C(c1ccc(F)cc1)C1Oc2ccccc2C2CC(c3ccc(C(=O)N4CCc5ccccc5C4)cc3)=NN12 | LAI | - | GFP / reporter gene | - | >10 µM |
| Cc1cccc(Nn2cnc(C)c2-c2cccc(C#N)c2)c1 | IIIB | - | cytopathic effect / MTT | - | >44.7 µM |
| O=C(c1ccc(F)cc1)C1Oc2ccccc2C2CC(c3ccc(C(=O)N4CCCCCC4)cc3)=NN12 | LAI | - | GFP / reporter gene | - | <1 µM |
| O=C(NCc1ccc(F)cc1)c1nc2n(c(=O)c1O)CN1CCSC21 | - | - | p24 | - | <50 µM |
| CCC(C)[C@@H](C(=O)N[C@@H](Cc1ccccc1)[C@H](O)CN(CC(C)C)S(=O)(=O)c1ccc(/C=N/O)cc1)N1CCN(Cc2ccc(C)nc2)C1=O | - | - | cytopathic effect / MTT | 50% human serum | 0.025 µM |
| CN(C)C1COCCn2c1nc(C(=O)NCc1ccc(F)cc1)c(O)c2=O | - | - | p24 | - | <50 µM |
| CC(=O)Nc1nc(-c2ccc(S(=O)(=O)N(CC(C)C)C[C@@H](O)[C@H](Cc3ccccc3)NC(=O)COc3c(C)cc(Br)cc3C)cc2)cs1 | LAI | - | cytopathic effect / MTT | - | 63.1 µM |
| COc1ccc(NC(=O)c2ccc(C3=NN4C(C(=O)c5ccc(F)cc5)Oc5ccccc5C4C3)cc2)cc1 | LAI | - | GFP / reporter gene | - | 1–10 µM |
| O=c1c2ccccc2sn1/N=C/c1ccc([N+](=O)[O-])cc1[N+](=O)[O-] | - | - | MTT | - | >100 µM |
| Cc1[nH]c(=S)n(Nc2cccc(Cl)c2)c1C(=O)O | IIIB | - | cytopathic effect / MTT | - | >266 µM |
| Cc1nnc(CN2CCn3c(nc(C(=O)NCc4ccc(F)cc4)c(O)c3=O)C2(C)C)o1 | - | - | p24 | - | <1 µM |
| Cc1ncn(Nc2cccc(Cl)c2)c1-c1cccc(Br)c1 | NL4-3 | - | cytopathic effect / MTT | - | 1.3 µM |
| CC(C)[C@H](NC(=O)OCc1ccccn1)C(=O)N[C@@H](Cc1ccccc1)[C@@H](O)C[C@H](Cc1ccccc1)NC(=O)OCc1cccnc1 | NL4-3 | PR-M46I L63P | p24 | - | <0.8 µM |
| Cc1[nH]c(=S)n(Nc2cccc(Cl)c2)c1-c1cccc(C#N)c1 | SO561945 (RT K103N Y181C) | RT-K103N Y181C | cytopathic effect / MTT | - | >99.4 µM |
| Cc1ccc(CN2CCN([C@H](C(=O)N[C@@H](Cc3ccccc3)[C@H](O)CN(CC(C)C)S(=O)(=O)c3ccc(/C=N/O)cc3)C(C)(C)C)C2=O)cn1 | A17 (LPV-resistant) | PR-L10F V32I M46I I47V Q68E I84V | cytopathic effect / MTT | - | 0.002 µM |
| Cc1cccc(Nn2c(C)c(C)[nH]c2=S)c1 | IIIB | - | cytopathic effect / MTT | - | >360 µM |
| Cc1ccc2sn(/N=C/c3ccc(O)c(O)c3)c(=O)c2c1 | - | K103N + Y181C | MTT | - | >49 µM |
| CC(=O)Nc1ncc(-c2ccc(S(=O)(=O)N(CC(C)C)C[C@@H](O)[C@H](Cc3ccccc3)NC(=O)O[C@H]3CO[C@H]4OCC[C@H]43)cc2)[nH]1 | - | PR-L010F M046I M071V I084V | cytopathic effect / MTT | - | 0.144 µM |
| Cc1ccc2sn(/N=C/c3ccc(O)cc3)c(=O)c2c1 | - | - | MTT | - | >23 µM |
| CCc1[nH]c(=S)n(Nc2cccc(Cl)c2)c1-c1ccccc1 | IIIB | - | cytopathic effect / MTT | - | 9.06 µM |
| CC(C)Cc1nc(-c2ccc(S(=O)(=O)N(CC(C)C)C[C@@H](O)[C@H](Cc3ccccc3)NC(=O)O[C@H]3CO[C@H]4OCC[C@H]43)cc2)co1 | LAI | - | cytopathic effect / MTT | - | 0.008 µM |
| O=c1c2ccccc2sn1/N=C/c1ccccc1[N+](=O)[O-] | - | - | MTT | - | 19 µM |
| COC(=O)c1c(C)[nH]c(=S)n1Nc1cccc(Cl)c1 | IIIB | - | cytopathic effect / MTT | - | >190 µM |
| CCC(C)[C@@H](C(=O)N[C@@H](Cc1ccccc1)[C@H](O)CN(CC(C)C)S(=O)(=O)c1ccc(/C=N/O)cc1)N1CCN(Cc2cnccc2C)C1=O | A17 (LPV-resistant) | PR-L10F V32I M46I I47V Q68E I84V | cytopathic effect / MTT | - | 0.012 µM |
| CC(C)CN(C[C@@H](O)[C@H](Cc1ccccc1)NC(=O)O[C@H]1CO[C@H]2OCC[C@H]21)S(=O)(=O)c1ccc(-c2csc(NCCCN(C)C)n2)cc1 | - | PR-L010F M046I M071V I084V | cytopathic effect / MTT | - | 2.528 µM |
| CN1CCn2c(nc(C(=O)NCc3ccc(F)cc3)c(O)c2=O)C(N(C)C(=O)C(=O)N(C)C)C1 | - | - | p24 | - | <1 µM |
| COc1ccc(S(=O)(=O)N(CC(C)C)C[C@@H](O)[C@H](Cc2ccccc2)NC(=O)[C@H](C(C)C)N2CC(=O)N(Cc3csc(C)n3)C2=O)cc1 | A17 (LPV-resistant) | PR-L10F V32I M46I I47V Q68E I84V | cytopathic effect / MTT | - | 0.075 µM |
| CN(C)CCCN(C)C(=O)c1ccc(C2=NN3C(C(=O)c4ccc(F)cc4)Oc4ccccc4C3C2)cc1 | LAI | - | GFP / reporter gene | - | 1–10 µM |
| CCC(C)[C@@H](C(=O)N[C@@H](Cc1ccccc1)[C@H](O)CN(CC(C)C)S(=O)(=O)c1ccc(/C=N/O)cc1)N1CCN(Cc2c(C)ccnc2C)C1=O | - | - | cytopathic effect / MTT | 50% human serum | 0.013 µM |
| CC(C)CN(C[C@@H](O)[C@H](Cc1ccccc1)NC(=O)O[C@H]1CO[C@H]2OCC[C@H]21)S(=O)(=O)c1ccc(-c2coc(-c3ccc(I)cc3)n2)cc1 | LAI | - | cytopathic effect / MTT | - | 0.079 µM |
| Cc1ccc2sn(/N=C/c3cccc(F)c3)c(=O)c2c1 | - | - | MTT | - | >30 µM |
| O=C(NC1CCCC1)c1ccc(C2=NN3C(C(=O)c4ccc(N5CCCCC5)cc4)Oc4ccccc4C3C2)cc1 | LAI | - | GFP / reporter gene | - | >10 µM |
| CC(=O)Nc1nc(-c2ccc(S(=O)(=O)N(CC(C)C)C[C@@H](O)[C@H](Cc3ccccc3)NC(=O)O[C@H]3CO[C@H]4OCC[C@H]43)cc2)cs1 | - | PR-L010F M046I M071V I084V | cytopathic effect / MTT | - | 0.755 µM |

Repeating the first 3 entries:

{"SMILES": "CN1CCn2c(nc(C(=O)NCc3ccc(F)cc3)c(O)c2=O)C(NCC2CCCCC2)C1", "method": "p24", "result": "<50 µM"}
{"SMILES": "COc1cc(/C=N/n2sc3ccc(C)cc3c2=O)ccc1O", "mutations": "EFV-resistant (K103 V179D P225H)", "method": "MTT", "result": ">16 µM"}
{"SMILES": "O=C(c1ccc(F)cc1)C1Oc2ccccc2C2CC(c3ccc(C(=O)N4CCc5ccccc5C4)cc3)=NN12", "strain": "LAI", "method": "GFP / reporter gene", "result": ">10 µM"}

ECn: concentration that inhibits the pathogen or its effect by n%. Conditions beyond the fields shown may differ between rows. An empty or dashed field is not shown.